From US20050227933A1 (priority 2001, published 2005)

Sequences of proteins named here, by UniProt entry; tags and fusion partners are left off. A change or cut given only in a name is not applied to a line headed by its entry.
UniProt P0CAW2: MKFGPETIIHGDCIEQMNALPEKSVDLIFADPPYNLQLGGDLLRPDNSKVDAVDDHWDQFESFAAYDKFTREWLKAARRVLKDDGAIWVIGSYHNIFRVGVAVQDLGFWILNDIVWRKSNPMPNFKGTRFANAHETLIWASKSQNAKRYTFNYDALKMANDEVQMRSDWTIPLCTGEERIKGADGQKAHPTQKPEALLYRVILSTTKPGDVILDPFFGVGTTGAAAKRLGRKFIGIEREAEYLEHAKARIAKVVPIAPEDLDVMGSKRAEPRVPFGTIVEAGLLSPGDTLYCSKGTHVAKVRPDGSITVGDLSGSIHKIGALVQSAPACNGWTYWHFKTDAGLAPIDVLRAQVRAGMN

Biological target: adenine DNA methyltransferase (UniProt P0CAW2)
Assay: In vitro DNA methyltransferase filter assay on library samples (3H-SAM, hemimethylated 45/50 DNA)
Format: biochemical
Conditions: read-out: approximate Ki; assuming the theoretical maximum concentration in the well

c1ccc(B(OCCNc2ncnc3[nH]cnc23)c2ccccc2)cc1
Ki: 1000 nM
